Measurements published in the supplement of paper PMC9931576.
Human monoclonal antibodies against the spike receptor-binding domain (heavy:light variable regions). IC50 against pseudoviruses bearing the spike of naturally observed variants; lower = stronger; >10 µg/ml means not reached at the top dose. No active / inactive call. The stated detection limit is 0.0005 µg/ml; values near or below 0.001 µg/ml lie at the floor of the assay.

B1: BD57-0399 (protein)
chain 1: QITLKESGPTLVKPTQTLTLTCTFSGFSLSTNGVGVGWIRQSPGKALEWLTLIYWNDDKHYSPSLKSRLTITKDTSKNQVVLTMTNMDPVDTGTYYCAHNLWDGYTGIPFHYWGQGALVTVSS
chain 2: DIQMTQSPSSLSASVGDRVTITCRASQSIGTYLSWYQHKPGKAPNLLIYDASTLQGGVPTRFSGSGSGTDFTLTISSLQPEDFATYYCLQTYTFPIFGGGTKVDIK
B2: BD57-0365 (protein)
chain 1: QMHLVESGGGVVQPGRSLRLSCEASGFTFSTYAMHWVRQAPGKGLEWVAFISSDGTNEYYADSVKGRFSISRDTSKNTLFLQMNSLRPDDTAVYFCAKPGSSGYQHVPDYFDSWGQGTLVTVSS
chain 2: SYVLTQPPSVSVAPGKTARITCGGNSIGSKSVHWYQQKPGQAPVVVIFYDNDRPSGIPERFSGSNSGNTATLTISRVEAGDEADYYCQVWDTGVLFGGGTKLTVL
B3: BD57-0375 (protein)
chain 1: QMQLAQSGPEVKKPGTSVKVSCKAAAFTFSPSSVQWVRQARGQHLEWIGWIVVASGNTEYAQQFQERVTLSRDMSTGTVYMELSSLRSEDTAVYYCAAPDCNRTTCHDGFDMWGQGTMVIVSS
chain 2: EIVLTQSPGTLSLSPGERATLSCRASQSVRSSYFAWYQQKPGQAPRLLIYGASRRATGIPDRFSGNGSGTDFTLTIRRLEPEDFAVYYCQQFGSSPWTFGQGTKVEIK
B4: BD57-0340 (protein)
chain 1: QVQLVESGGGVVQPGRALRLSCAASGFTFSAYGMHWVRQAPGKGLEWVAVIWYDGNYKYYADSVKGRFTISRDNSKNTLYLQMNSLRAEDTAVYYCARDGNIGWSFPYFDCWGQGTLVTVSS
chain 2: SYELTQPPSVSVSPGQTARITCSADTLPNQYAYWYQQKPGQAPVLVIYKDSERPSGIPERFSGSSSGTTITLTISGVQAEDEADYYCQSADSSGTVLVFGGGTKLTVL
B5: BD57-0361 (protein)
chain 1: EVQLVESGGGLVPPGRSLRLSCAASGFTFDDYAMHWVRQAPGKGLEWISGINWNSGDIAYSDSVKGRFTISRDNAKNSLYLQMDSLRARDSALYFCTKARLGELPTGPFDYWGQGTLVTVSS
chain 2: QSVLTQPPSASGTPGQRVTISCSGSSSNIGRYTVNWYQHLPGTAPKLLIYLNNHRPSGVPDRFSGSKSGTSGSLAISGLQSEDEADYYCVAWDDSLNGWVFGGGTKLTVL
B6: BD57-0386 (protein)
chain 1: EVQLVESGGGLIQPGGSLRLSCAVSGFTVSSNYMSWVRQAPGKGLEWVSVIYSGGSTFYADSVKGRFTISRDHSKNTLYLQMNSLRADDTAVYHCARGLGVPVARRDYDHWGQGTLVTVSS
chain 2: DIQMTQSPSSLSASVGDRVTITCQASQDITNSLNWYQQKPGKAPKLLIYDASHLETGVPSRFSGSGSGTDFTFTITSLQPEDIATYYCQQYDNIPPYTFGQGTKLEIK
B7: BD57-0394 (protein)
chain 1: DVQLVESGGGLIQPGGSLRLSCEVSGFTVSANYMSWVRQARGKGLEWVSIIYPGGSMFYADSVKGRFTISRDKSRDTLYLQMNSLRPEDTAVYYCARGLGVPLATRDYDHWGQGTQVTVSS
chain 2: DIQMTQSPSSLSASIGDRVTITCQASQHISNSLNWYQQKPGRAPKLLIYGASNLETGVPSRFSGSGSGTDFTFTISSLQPEDTATYFCQQYDNIPPYTFGQGTKLQIK
B8: BD57-0335 (protein)
chain 1: EVQLVESGGGLVKPGGSLRLSCGASGFTFSSYSMNWVRQAPGKGLEWVSSISRSPSYISYADSVKGRFTISRDNTKNSLSLQMDSLRDDDTAVYYCARDGAGGQMGLLYFYYMDVWGKGTTVSVSS
chain 2: QSALTQPASVSGSPGQSITISCTGTSSDIGDYNYVSWYQQHPGKAPKLMIYDVSNRPSGVSNRFSGSKSGNTASLTISGLQAEDEANYYCSSYTRSSPLVLFGGGTKLTVL
B9: BD57-0400 (protein)
chain 1: QVQLVQSGAEVKKPGASVKVSCKASGYTFSNYYLHWVRQAPGQGLEWMGIINPSAGSTSYAQKFQGRLTMTSDTSTNRVYMELSSLRSEDTAVYYCARDLGLVPSAVGLEFWGQGTQVTVSS
chain 2: DIQMTQSPSSLSASVGDRVTITCRASQDIRNSLAWYQQQPGKVPKLLIYAASTLQSGVPSRFSGSGSGTDFTLTISTLQPEDVATYYCQKHNSSPPWTFGQGTKVEIK
B10: BD57-0373 (protein)
chain 1: QVQLVQSGAEVKKPGSSVKVSCKASGGPFNNYAITWVRQAPGQGLEWMGGIIPIFGTTNYAQKFQGRLTITADEFTSTAFMELSSLRSEDTAVYYCATPFRGAAGQYYYYYMDVWGKGTTVIVSS
chain 2: DIQMTQSPSSLSASVGDRVTITCQASQDISNFLNWYQQKPGKAPKLLIYDAYNLETGVPSRFSGSGSGTHFTFTISSLQPEDFATYYCQQYDNVRLTFGGGTKVDIK
B11: BD57-0363 (protein)
chain 1: EVQLVESGGGLVKPGGSLRLSCAASGFTFNNAWMTWVRQAPGKGLEWVGRIKSKTDGGTRDYAAPVKGRFTISRDESKNMLYLQMNSLKTEDTAVYYCATVSSLHFWLIGEDNALDIWGQGTMVTVSS
chain 2: EIVLTQSPGTLSLSPGERATLSCRASQSVSSSYLAWYQQKPGQAPRLLIYGSLSRAAGIPDRFSGSGSGTDFTLTISRLEPEDFAVYYCQHYGSSSQTFGQGTKVEIK
B12: BD57-0336 (protein)
chain 1: QVHLVESGGGVVQPGRSLRLSCAASGFTFRSYGMYWVRQAPGKGLEWVATISYDGDNKNYGDSVKGRFTISRDNSKNTLYLQMNSLRAEDTAVYYCAKRLGQYCSADSCNSAGGYFDYWGLGTLVTVSS
chain 2: NFMLTQPHSVSESPGKTVTISCTRSSGSIASNYVQWYQQRPGSAPTSVIHEDNQRASGVPDRFSGSIDSSSNSASLTISGLKTEDEADYYCQSYDNANVVFGGGTKLTVL

Tests used:
Assay in all cases: pseudovirus neutralization IC50; higher = weaker neutralization
[1] = target: SARS-CoV-2 Omicron BA.1 spike pseudovirus
Description: (§1)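 Single-round VSV luciferase pseudovirus mixed with antibody dilutions for 1 h and put on Huh-7 cells for about a day; IC50 from the dose curve.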

[2] = target: SARS-CoV-2 Omicron BA.2 spike pseudovirus
Description: as §1

[3] = target: SARS-CoV-2 Omicron BA.2.75 spike pseudovirus
Description: as §1

[4] = target: SARS-CoV-2 Omicron BA.5 spike pseudovirus
Description: as §1

[5] = target: SARS-CoV-2 Omicron BQ.1.1 spike pseudovirus
Description: as §1

[6] = target: SARS-CoV-2 Omicron XBB spike pseudovirus
Description: as §1

[7] = target: SARS-CoV-2 early D614G spike pseudovirus
Description: as §1

Binder | pseudovirus neutralization IC50 [1] | pseudovirus neutralization IC50 [2] | pseudovirus neutralization IC50 [3] | pseudovirus neutralization IC50 [4] | pseudovirus neutralization IC50 [5] | pseudovirus neutralization IC50 [6] | pseudovirus neutralization IC50 [7]
B1 | 0.703 µg/mL | 0.0566 µg/mL | 0.489 µg/mL | 0.0616 µg/mL | 0.0764 µg/mL | 0.238 µg/mL | 0.0101 µg/mL
B2 | 3.24 µg/mL | 6.26 µg/mL | 7.12 µg/mL | 3.88 µg/mL | > 10 µg/mL | 3.49 µg/mL | > 10 µg/mL
B3 | 0.0028 µg/mL | 0.00221 µg/mL | 0.00276 µg/mL | 0.0963 µg/mL | 0.452 µg/mL | > 10 µg/mL | 0.00129 µg/mL
B4 | 0.502 µg/mL | 0.717 µg/mL | 0.968 µg/mL | 1.66 µg/mL | > 10 µg/mL | > 10 µg/mL | 0.673 µg/mL
B5 | 2.15 µg/mL | 3.16 µg/mL | 1.47 µg/mL | 2.8 µg/mL | 2.26 µg/mL | 1.82 µg/mL | 0.0667 µg/mL
B6 | 0.0438 µg/mL | 0.00655 µg/mL | 0.423 µg/mL | 0.00715 µg/mL | 4.5 µg/mL | > 10 µg/mL | 0.00973 µg/mL
B7 | 0.00293 µg/mL | 0.00462 µg/mL | 0.00957 µg/mL | 0.0037 µg/mL | 0.0195 µg/mL | 0.0561 µg/mL | 0.0061 µg/mL
B8 | 0.0401 µg/mL | 0.0279 µg/mL | 0.0317 µg/mL | 0.0308 µg/mL | > 10 µg/mL | > 10 µg/mL | 0.00588 µg/mL
B9 | > 10 µg/mL | > 10 µg/mL | > 10 µg/mL | > 10 µg/mL | > 10 µg/mL | > 10 µg/mL | > 10 µg/mL
B10 | 0.846 µg/mL | 0.89 µg/mL | 0.597 µg/mL | 1.68 µg/mL | 2.05 µg/mL | 1.91 µg/mL | 4.02 µg/mL
B11 | 3.3 µg/mL | 4.28 µg/mL | 6.76 µg/mL | 6.6 µg/mL | 5.72 µg/mL | 5.93 µg/mL | > 10 µg/mL
B12 | > 10 µg/mL | > 10 µg/mL | > 10 µg/mL | > 10 µg/mL | > 10 µg/mL | > 10 µg/mL | 1.31 µg/mL
